Measurements from PubChem BioAssay AID602314 (ICCB-Longwood Screening Facility, Harvard Medical School, 2012).
This is a selection; strong and weak results do not stand in their true shares. Calls of active or inactive are those of the source. No stated cut-off is given here; in the data, active means inhibition above about 30% (passing the limit was not always enough); inactive means the rest.

System: MgrA (MarR family transcriptional regulator), Staphylococcus aureus Newman
Assay: S. aureus MgrA activity modulators, primary screen, biochemical, S. aureus Newman, fluorescence polarization (AID 602314);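 further: 0% = protein plus DNA without compound and 100% = DNA alone without protein; higher means less MgrA bound to DNA so lower polarization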
Conditions: MgrA-DNA binding, hits give high values, concentration not given here

Structure (SMILES) | inhibition
CCCN1CCC(Nc2cc(OC)cc(OC)c2)CC1 | inactive: -0.3%
NC(=O)C1(Nc2ccccc2)CCN(Cc2ccccc2)CC1 | inactive: -1.15%
CN1CCC(Nc2ccc(F)cc2)CC1 | inactive: -2.5%
CC(C)(C)OC(=O)N1CCC(Nc2ccccc2)CC1 | inactive: -0.45%
CC1CN(CCc2ccccc2)C(C)CC1=O (configuration not stated) | inactive: -1.35%
CCN1CCC(Nc2ccc(F)cc2)CC1 | inactive: -2.65%
CCOC(=O)N1CCC(Nc2ccc(F)cc2)CC1 | inactive: 0.25%
CCOC(=O)N1CCC(Nc2cccc(C)c2)CC1 | inactive: -0.7%
Cc1ccccc1NC1CC(C)(C)NC(C)(C)C1 | inactive: -2.8%
CCCN1CCC(Nc2ccc(OC)c(OC)c2)CC1 | inactive: -1.5%
CC1CN(CCc2ccccc2)CCC1=O (configuration not stated) | inactive: -1.5%
FC(F)(F)Oc1ccc(NC2CCNCC2)cc1 | inactive: -2.55%
c1ccc(CN2CCC(Nc3ccc4c(c3)OCO4)CC2)cc1 | inactive: 4.1%
NC(=O)C1(Nc2ccc(F)cc2)CCNCC1 | inactive: -1.3%
CC(C)(C)OC(=O)N1CCC(Nc2ccc(OC(F)(F)F)cc2)CC1 | inactive: 0.75%
N#CC(C#N)=Cc1ccc2c(c1)OCO2 | inactive: -1.3%
CC(C)(C)OC(=O)N1CCC(=O)CC1 | inactive: 3.8%
